Data: article PMC8661032, “Broad-Spectrum Antibacterial Peptide Kills Extracellular and Intracellular Bacteria Without Affecting Epithelialization” (Frontiers in Microbiology, 2021)
Like-named read-outs stand apart in the source and are kept apart here. Residues, ends and D or L forms follow the SMILES beside them.

Key:
[1] = test system: S. aureus ATCC 29213 and SO-SAU19-1
E. coli K-12 MG1655 = test: Resistance development assay (serial passage), E. coli; settings: serial passage at sub-MIC in CAMHB, 32 days

CC[C@H](C)[C@H](NC(=O)CNC(=O)[C@H](CCCCN)NC(=O)[C@@H](NC(=O)[C@H](CC(C)C)NC(=O)[C@H](Cc1c[nH]c2ccccc12)NC(=O)[C@H](CCCNC(=N)N)NC(=O)[C@H](CC(=O)O)NC(=O)[C@H](CCSC)NC(C)=O)C(C)C)C(=O)N[C@@H](CC(C)C)C(=O)N[C@@H](CCC(N)=O)C(=O)N[C@@H](Cc1c[nH]c2ccccc12)C(=O)N[C@@H](CCCNC(=N)N)C(=O)N[C@@H](CCCCN)C(=O)N[C@H](C(=O)N[C@@H](CCCNC(=N)N)C(=O)N[C@@H](CCCNC(=N)N)C(=O)N[C@@H](CCCNC(=N)N)C(=O)N[C@@H](CCCNC(=N)N)C(=O)N[C@@H](CCCNC(=N)N)C(=O)N[C@@H](CCCNC(=N)N)C(=O)N[C@@H](CCCNC(=N)N)C(=O)N[C@@H](CCCNC(=N)N)C(=O)N[C@@H](CCCNC(=N)N)C(=O)N[C@@H](CCCNC(=N)N)C(=O)N[C@@H](CCCNC(=N)N)C(N)=O)[C@@H](C)CC [betatide] (Ac-MDRWLVKGILQWRKIRRRRRRRRRRR-NH2)
increase in MIC relative to day 1 ([1]; S. aureus ATCC 29213, serial passage, first experiment (parallel 1)): 8 ×
increase in MIC relative to day 1 ([1]; S. aureus SO-SAU19-1 (MRSA), 20 passages): did not show any signs of resistance development
increase in MIC relative to day 1 (E. coli K-12 MG1655): 2 ×
